# Test results: publication PMC8163077, “SARS-CoV-2 can recruit a heme metabolite to evade antibody immunity” (Science Advances, 2021)
# Legend:
# [1] = molecular target: SARS-CoV-2 S1 (residues 1 to 530), wild type (SARS-CoV-2, UniProt P0DTC2); experiment: ELISA; direct ELISA; […] (3 ug/ml in PBS) […]; details: both partners purified
# [2] = molecular target: full-length wild-type SARS-CoV-2 spike expressed on HEK293T cells (SARS-CoV-2, UniProt P0DTC2); experiment: flow cytometry on cells; details: one partner purified
binder,measurement,setting,value
"P008_056 human monoclonal IgG (antibody, V domains shown, copies: 2 + 2) VH: EVQLVESGGGLVKPGGSLRLSCAASGFSFSSYSMNWVRQAPGKGLEWVSSISSNSNYIYYADSMKGRFTISRDNAKNSLYLQMNSLRAEDTAVYYCASNRSPYDSSNYYFDYWGQGTRVTISS VL: AIRMTQSPSSLSASVGDRVTITCQASQDISNYLNWYQQKPGKAPKLLIYDASNLETGVPSRFSGSGSGTDFTFTISSLQPEDIATYYCQHHDSLPLTFGGGTKVEIK",binding result,[1],binds
same,binding result,[2],binds
